Results of unrelated studies side by side (data: NIAID ChemDB).

Shared fields: growth or infection tests; agent: HIV-1; cell line: C8166; endpoint: EC50

Blank or dashed fields: not listed here. Conditions beyond the fields shown may differ between rows. ECn: concentration that inhibits the pathogen or its effect by n%.

structure	strain or isolate	mutations	read by	value
CCCC(C(=O)O)c1c(-c2ccc(Cl)cc2)c2cc(Cl)ccc2n(CC)c1=O	-	-	luciferase / reporter gene	<20 µM
NC(=O)c1cn(CCO)c(Cc2ccccc2)cc1=O	-	-	MTT	>100 µM
CCN1c2ncc(CCOc3ccc(-c4ccc(C(=O)O)nc4)cc3C)cc2C(=O)N(C)c2cccnc21	IIIB	-	p24	<0.01 µM
CCN1c2ncc(CCOc3ccc(/C=C(\C)C(=O)O)c4ccccc34)cc2C(=O)N(C)c2cccnc21	-	RT-K103N Y181C	p24	<0.1 µM
COc1cc2c(c(O)c1OC)-c1c(cc(OC)c(OC)c1O)C[C@H](C)[C@H](C)C2	IIIB	-	syncytia	5.64 µM
CCc1c(Cc2cccc3ccccc23)nc(SCC(=O)c2cccs2)[nH]c1=O	IIIB	-	syncytia	0.62 µM
CCN1c2ncc(CCOc3ccc(-c4cccc(CC(=O)O)c4)cc3)cc2C(=O)N(C)c2cccnc21	IIIB	-	p24	<0.01 µM
CCc1c(Cc2ccccc2)nc(SCC(=O)c2ccco2)[nH]c1=O	IIIB	-	syncytia	0.16 µM
O=C(NNCCO)c1[nH]c2ccc(Cl)cc2c1S(=O)(=O)c1ccccc1	IIIB	-	cytopathic effect / MTT	0.02 µM
Cc1cc(-c2ccc(CC(=O)O)cc2)ccc1OCCc1cnc2c(c1)C(=O)N(C)c1cccnc1N2	-	RT-K103N Y181C	p24	>0.05 µM
O=c1nc(Oc2c(F)c(F)c(F)c(F)c2F)ccn1[C@H]1C[C@H](O)[C@@H](CO)O1	IIIB Laboratory clade B	-	syncytia	400 µM
CCCC(C(=O)O)c1c(C)nc2ccc(Br)cc2c1-c1ccc(C)cc1	-	-	luciferase / reporter gene	<20 µM
CCN1c2ncc(CCOc3ccc(C(=O)O)c4c3CCC4)cc2C(=O)N(C)c2ccc(Cl)nc21	-	RT-K103N Y181C	p24	<0.1 µM
CC(=O)OC[C@H]1O[C@@H](n2cc(C)c(Oc3c(F)c(F)c(F)c(F)c3F)nc2=O)C[C@@H]1OC(C)=O	IIIB Laboratory clade B	-	syncytia	>80 µM
C=Cc1ccc(-c2c(C(OC(C)C)C(=O)O)c(C)nc3ccc(Cl)cc23)cc1	-	-	luciferase / reporter gene	<20 µM
C=CC(C)(C)c1cc2ccc(O)c(OC)c2oc1=O	IIIB	-	ELISA	10.7 µM
CCN1c2ncc(CCOc3ccc(CC(=O)O)c4ccccc34)cc2C(=O)N(C)c2ccc(Cl)nc21	-	RT-K103N Y181C	p24	<0.1 µM
CC(C)c1c(CC2CCCCC2)nc(SCc2ccccc2)[nH]c1=O	-	-	-	0.000088 µM
CCc1c(Cc2ccccc2)nc(SCC(=O)c2ccccc2)[nH]c1=O	IIIB	-	syncytia	0.08 µM
Cc1cn([C@H]2C[C@H](N=[N+]=[N-])[C@@H](CO)O2)c(=O)[nH]c1=O	RF	-	cytopathic effect	0.00295 µg/mL
CC(C)=CCOc1cc(O)c2ccc(=O)oc2c1	IIIB	-	ELISA	18.3 µM
CC(C)c1c(CC2CCCCC2)nc(SCC(=O)c2ccccc2)[nH]c1=O	-	-	-	0.000025 µM
CCN1c2ncc(CCOc3ccc(-c4ccc(C(=O)O)o4)cc3C)cc2C(=O)N(C)c2cccnc21	IIIB	-	p24	<0.01 µM
O=C(NCCO)c1[nH]c2ccc(Cl)cc2c1Sc1ccccc1	IIIB	-	cytopathic effect / MTT	0.05 µM
CCOC(C(=O)O)c1c(C)nc2ccc(Cl)cc2c1-c1ccc(CC)cc1	-	-	luciferase / reporter gene	<20 µM
CC(=O)OCC1=C[C@H]2[C@@H]3C(C)(C)[C@]3(OC(C)=O)[C@H](OC(=O)CCCCn3ccc(=O)n(CCCOC(=O)[C@]45CCCC[C@H]4C4=CC[C@@H]6[C@@]7(C)CC[C@H](O)C(C)(C)[C@@H]7CC[C@@]6(C)[C@]4(C)CC5)c3=O)[C@@H](C)[C@]2(O)[C@@H]2C=C(C)C(=O)[C@@]2(O)C1	IIIB	-	p24 / ELISA	>200 µM
CCc1c(Cc2ccccc2)nc(SCC(=O)c2cccs2)[nH]c1=O	IIIB	-	syncytia	5.39 µM
Cc1ccccc1S(=O)(=O)c1c(C(=O)NNCCO)[nH]c2ccc(Cl)cc12	IIIB	-	cytopathic effect / MTT	0.03 µM
CC1=C[C@H]2[C@@]3(O)[C@H](C)[C@@H](OC(=O)/C=C/c4ccccc4)[C@]4(O)[C@H]([C@@H]3C=C(COC(=O)/C=C/c3ccccc3)C[C@]2(O)C1=O)C4(C)C	IIIB	-	p24 / ELISA	27.01 µM
O=C(NCCO)c1[nH]c2ccc(Cl)cc2c1S(=O)(=O)c1ccccc1	IIIB	-	cytopathic effect / MTT	0.002 µM
CCc1c(Cc2ccccc2)nc(SCC(=O)c2ccccc2)[nH]c1=O	-	-	-	0.08015 µM
COc1ccc(-c2c([C@H](OC(C)C)C(=O)O)c(C)nc3ccc(Cl)cc23)cc1	-	-	luciferase / reporter gene	<20 µM
Cc1c(CC2CCCCC2)nc(SCC(C)C)[nH]c1=O	-	-	-	1.734 µM
CC(C)=CCC/C(C)=C/COc1ccc2ccc(=O)oc2c1	IIIB	-	ELISA	59.7 µM
CCN1c2ncc(CCOc3cccc4c3ccc[n+]4[O-])cc2C(=O)Nc2c(C)cc(Cl)nc21	-	RT-K103N Y181C	p24	0.022 µM
O=c1nc(-n2cncn2)ccn1[C@H]1C[C@H](O)[C@@H](CO)O1	IIIB Laboratory clade B	-	syncytia	>1000 µM
Cc1cc(C)cc(S(=O)(=O)c2c(C(=O)NCC(N)=O)[nH]c3ccc(Cl)cc23)c1	-	RT-K103R	cytopathic effect / MTT	<0.1 µM
Cc1cc(C)cc(Sc2c(C(=O)NNCCO)[nH]c3ccc(Cl)cc23)c1	IIIB	-	cytopathic effect / MTT	0.1 µM
CCN1c2ncc(CCOc3ccc(Nc4cccc(CC(=O)O)c4)cc3C)cc2C(=O)N(C)c2cccnc21	IIIB	-	p24	<0.01 µM
CC(C)CC(C(=O)O)c1c(-c2ccc(Cl)cc2)c2cc(Br)ccc2oc1=O	-	-	luciferase / reporter gene	<20 µM
CC1(C)C=Cc2cc3ccc(=O)oc3cc2O1	IIIB	-	ELISA	41.2 µM
CCN1c2ncc(CCOc3ccc(CC(=O)NN)c4ccccc34)cc2C(=O)N(C)c2ccc(Cl)nc21	-	RT-K103N Y181C	p24	<0.1 µM
CC(C)CSc1nc(CC2CCCCC2)c(C(C)C)c(=O)[nH]1	-	-	-	0.09292 µM
CCN1c2ncc(CCOc3ccc(/C=C(\C)C(=O)O)c4ccccc34)cc2C(=O)N(C)c2ccc(F)nc21	WT	-	p24	<0.1 µM
CCCCCCCCCCC(=O)O[C@@H]1[C@@H](C)[C@@]2(O)[C@@H](C=C(CO)C[C@]3(O)C(=O)C(C)=C[C@@H]23)[C@@H]2C(C)(C)[C@]12OC(=O)CCCCCCCCCC	IIIB	-	p24 / ELISA	16.51 µM
Cc1c(CC2CCCCC2)nc(SCC(=O)c2ccccc2)[nH]c1=O	-	-	-	0.0758 µM
COc1cc(C2OC[C@@H]3[C@@H](c4cc(OC)c(O)c(OC)c4)OC[C@H]23)cc(OC)c1O	IIIB	-	ELISA	79.5 µM
CC(=O)O[C@@]12[C@H](OC(=O)/C=C/c3ccc(F)cc3)[C@@H](C)[C@@]3(O)[C@@H](C=C(CO)C[C@]4(O)C(=O)C(C)=C[C@@H]34)[C@@H]1C2(C)C	IIIB	-	p24 / ELISA	0.0264 µM
NC(=O)c1[nH]c2ccc(Cl)cc2c1S(=O)(=O)c1ccccc1	EFV-resistant (RT K103R V179D P225H)	RT-K103R V179D P225H	p24	<0.9 µM
NC(=O)c1c[nH]c(Cc2ccccc2)cc1=O	-	-	MTT	>100 µM
CC1=C[C@H]2[C@@]3(O)[C@H](C)[C@@H](OC(=O)CCCCCBr)[C@]4(OC(=O)CCCCCBr)[C@H]([C@@H]3C=C(CO)C[C@]2(O)C1=O)C4(C)C	IIIB	-	p24 / ELISA	0.0057 µM
O=C(NNCCO)c1[nH]c2ccc(Cl)cc2c1Sc1ccccc1	IIIB	-	cytopathic effect / MTT	0.3 µM
COc1cc(OC)c2ccc(=O)oc2c1	IIIB	-	ELISA	33.8 µM
Cc1cc(C)cc(S(=O)(=O)c2c(C(=O)NCCO)[nH]c3ccc(Cl)cc23)c1	IIIB	-	cytopathic effect / MTT	0.002 µM
CC(C)c1c(Cc2cccc3ccccc23)nc(SCC(=O)c2ccccc2)[nH]c1=O	IIIB	-	syncytia	0.28 µM
CCN1c2ncc(CCOc3ccc(CC(=O)O)c4ccccc34)cc2C(=O)Nc2c(C)cc(Cl)nc21	WT	-	p24	<0.1 µM
COc1ncc(-c2c(C(OC(C)C)C(=O)O)c(C)nc3ccc(Cl)cc23)cn1	-	-	luciferase / reporter gene	<20 µM
CCN1c2ncc(CCOc3ccc(NS(=O)(=O)C(F)(F)F)c4ccccc34)cc2C(=O)N(C)c2ccc(F)nc21	-	RT-K103N Y181C	p24	<0.1 µM
O=c1cc(-c2cccc3c2Sc2ccccc2S3)oc(N2CCOCC2)c1	RT-K65R L74V M184V	-	cytopathic effect / XTT	2.8 µM

The last 5 rows once more:

structure | strain or isolate | mutations | read by | value
CC(C)c1c(Cc2cccc3ccccc23)nc(SCC(=O)c2ccccc2)[nH]c1=O | IIIB | - | syncytia | 0.28 µM
CCN1c2ncc(CCOc3ccc(CC(=O)O)c4ccccc34)cc2C(=O)Nc2c(C)cc(Cl)nc21 | WT | - | p24 | <0.1 µM
COc1ncc(-c2c(C(OC(C)C)C(=O)O)c(C)nc3ccc(Cl)cc23)cn1 | - | - | luciferase / reporter gene | <20 µM
CCN1c2ncc(CCOc3ccc(NS(=O)(=O)C(F)(F)F)c4ccccc34)cc2C(=O)N(C)c2ccc(F)nc21 | - | RT-K103N Y181C | p24 | <0.1 µM
O=c1cc(-c2cccc3c2Sc2ccccc2S3)oc(N2CCOCC2)c1 | RT-K65R L74V M184V | - | cytopathic effect / XTT | 2.8 µM